Measured values from several laboratories, pooled; numbers as filed in NIAID ChemDB.

Common to all: tests in culture

An empty or dashed field is not shown.

structure | endpoint | read by | dose | organism | setting | strain or isolate | result
CCc1nc2ccc(Cl)cn2c1C(=O)NCc1ccc(N2CCN(c3ccc(OC(F)(F)F)cc3F)[C@@H](C)C2)c(F)c1.Cl | inhibition | fluorescence | 0.0088 µM | Mycobacterium avium |  |  | 85%
CCCCCCO/N=C1\[C@H](C)CC(C)(O)[C@H](O[C@@H]2O[C@H](C)C[C@H](N(C)C)[C@H]2O)[C@@H](C)[C@H](O[C@H]2C[C@@](C)(OC)[C@@H](OC(C)=O)[C@H](C)O2)[C@@H](C)C(=O)O[C@H](CC)[C@@](C)(O)[C@H](O)[C@H]1C | MIC |  |  | Mycobacterium avium complex |  | 20092 (clarithromycin-resistant) | 3.13 µg/mL
COc1ccc(NC(=O)NNC(=O)c2ccncc2)cc1 | MIC100 | broth dilution |  | Mycobacterium kansasii | 7 d | My 235/80 | >125 µM
O=C(NCc1ccc(N2CCOCC2)nc1)c1c(Cl)nc2ccccn12 | MIC50 | fluorescence |  | Mycobacterium ulcerans |  |  | 1–10 µg/mL
CCOc1ccc(N2CCN(c3ccc(CNC(=O)c4c(CC)nc5ccc(Cl)cn45)cc3F)C[C@@H]2C)cc1 | inhibition | fluorescence | 0.011 µM | Mycobacterium avium |  |  | 85%
CC[C@H]1OC(=O)[C@H](C)[C@@H](O[C@H]2C[C@@](C)(OC)[C@@H](OC(C)=O)[C@H](C)O2)[C@H](C)[C@@H](O[C@@H]2O[C@H](C)C[C@H](N(C)C)[C@H]2O)C(C)(O)C[C@@H](C)/C(=N\OCCCCCc2ccccc2)[C@H](C)[C@@H](O)[C@]1(C)O | MIC |  |  | Mycobacterium avium complex |  | 20092 (clarithromycin-resistant) | 3.13 µg/mL
CCCCCCc1ccc(NC(=O)NNC(=O)c2ccncc2)cc1 | MIC100 | broth dilution |  | Mycobacterium kansasii | 7 d | My 6509/96 | 62.5 µM
CC(C)N=C(N)/N=C(\N)NOCCCOc1cc(Cl)c(Cl)cc1Cl | MIC |  |  | Mycobacterium avium complex |  | 1928 | 16 µg/mL
CO[C@@]1(NC(=O)CSCC#N)C(=O)N2C(C(=O)O)=C(CSc3nnnn3C)CS[C@@H]21 | MIC |  |  | Mycobacterium fortuitum |  | 914-8 | 3.12 µg/mL
O=C(NCc1ccc(C(F)(F)F)cc1Cl)c1c(Cl)nc2ccccn12 | MIC50 | fluorescence |  | Mycobacterium ulcerans |  |  | >10 µg/mL
CO[C@@]1(NC(=O)Cc2ccccc2)C(=O)N2C(C(=O)[O-])=C(CSc3nnc(C)s3)CSC21 | MIC |  |  | Mycobacterium fortuitum |  | 1004-8 | 100 µg/mL
Fc1cc(Br)ccc1Nc1nnc(-c2ccncc2)o1 | MIC100 | broth dilution |  | Mycobacterium kansasii | 21 d | My 6509/96 | >125 µM
Cc1nc2ccc(Cl)cn2c1C(=O)NCc1ccc(N2CCOCC2)cc1 | MIC50 | fluorescence |  | Mycobacterium ulcerans |  |  | 0.01–0.1 µg/mL
CCCCCCCCO/N=C1\[C@H](C)CC(C)(O)[C@H](O[C@@H]2O[C@H](C)C[C@H](N(C)C)[C@H]2O)[C@@H](C)[C@H](OC2C[C@@](C)(OC)[C@@H](O)[C@H](C)O2)[C@@H](C)C(=O)O[C@H](CC)[C@@](C)(O)[C@H](O)[C@H]1C | MIC |  |  | Mycobacterium avium complex |  | 20092 (clarithromycin-resistant) | 25 µg/mL
CCNC(=O)c1c(Cl)nc2ccccn12 | MIC50 | fluorescence |  | Mycobacterium ulcerans |  |  | >10 µg/mL
CCc1nc2cc(C)c(F)cn2c1C(=O)NCc1ccc(N2CCN(c3ccc(OC(F)(F)F)cc3)[C@@H](C)C2)c(F)c1 | inhibition | fluorescence | 0.068 µM | Mycobacterium avium |  |  | 85%
CO[C@H]1/C=C/O[C@@]2(C)Oc3c(C)c(O)c4c(=O)c(c5oc6cc(N7CCN(CC(C)C)CC7)cc(=O)c6nc5c4c3=C2O)NC(=O)/C(C)=C\C=C\[C@H](C)[C@H](O)[C@@H](C)[C@@H](O)[C@@H](C)[C@H](OC(C)=O)[C@@H]1C | MIC |  |  | Mycobacterium ulcerans |  | Isolate 8756 | 0.025 µg/mL
COc1ccn2nc(C)c(C(=O)NCc3ccc(N4CCN(c5ccc(OC(F)(F)F)cc5)[C@@H](C)C4)c(F)c3F)c2c1.Cl | inhibition | fluorescence | 0.049 µM | Mycobacterium avium |  |  | 85%
CO[C@@]1(NC(=O)Cc2ccccc2)C(=O)N2C(C(=O)O)=C(COC(C)=O)CSC21 | MIC |  |  | Mycobacterium fortuitum |  | 1047 | >100 µg/mL
COc1ccn2nc(C)c(C(=O)NCc3ccc(N4CCN(c5ccc(OC(F)(F)F)cc5)[C@H](C)C4)c(F)c3)c2c1.Cl | inhibition | fluorescence | 0.0053 µM | Mycobacterium avium |  |  | 85%
CC[C@H]1OC(=O)[C@H](C)[C@@H](O[C@H]2C[C@@](C)(OC)[C@@H](OC(C)=O)[C@H](C)O2)[C@H](C)[C@@H](O[C@@H]2O[C@H](C)C[C@H](N(C)C)[C@H]2OC(=O)NNCCCc2ccccc2)C(C)(O)C[C@@H](C)/C(=N\OCCCC2CCCCC2)[C@H](C)[C@@H](O)[C@]1(C)O | MIC |  |  | Mycobacterium avium complex |  | 20092 (clarithromycin-resistant) | 1.56 µg/mL
O=C(NNC(=O)c1ccncc1)Nc1ccc(C(F)(F)F)cc1 | MIC100 | broth dilution |  | Mycobacterium kansasii | 14 d | My 235/80 | >125 µM
Cc1nc2ccc(Cl)cn2c1C(=O)NCc1ccc(-c2ccccc2)cc1 | MIC50 | fluorescence |  | Mycobacterium ulcerans |  |  | 0.001–0.01 µg/mL
CO[C@@]1(NC(=O)CCCC(N)C(=O)O)C(=O)N2C(C(=O)O)=C(COC(N)=O)CSC21 | MIC |  |  | Mycobacterium fortuitum |  | 1261 | >100 µg/mL
CC[C@H]1OC(=O)[C@H](C)[C@@H](O[C@H]2C[C@@](C)(OC)[C@@H](O)[C@H](C)O2)[C@H](C)[C@@H](O[C@@H]2O[C@H](C)C[C@H](N(C)C)[C@H]2O)[C@](C)(O)C[C@@H](C)/C(=N\OC)[C@H](C)[C@@H](O)[C@]1(C)O | MIC |  |  | Mycobacterium avium complex |  | 20039 (clarithromycin-susceptible) | 3.13 µg/mL
CCc1nc2cc(F)ccn2c1C(=O)NCc1ccc(N2CCC(c3ccc(OC(F)(F)F)cc3)CC2)c(F)c1.Cl | inhibition | fluorescence | 0.013 µM | Mycobacterium avium |  |  | 85%
O=C(NNC(=O)c1ccncc1)Nc1ccc(Cl)c(C(F)(F)F)c1 | MIC100 | broth dilution |  | Mycobacterium kansasii | 21 d | My 6509/96 | 125 µM
Cc1nc2ccc(Br)cn2c1C(=O)NCc1ccc(N2CCN(c3ccc(C(F)(F)F)cn3)CC2)c(F)c1 | inhibition | fluorescence | 0.02 µM | Mycobacterium avium |  |  | 85%
CO[C@H]1/C=C/O[C@@]2(C)Oc3c(C)c(O)c4c(O)c(c(/C=N/N5CCN(C6CCCC6)CC5)c(O)c4c3C2=O)NC(=O)/C(C)=C\C=C\[C@H](C)[C@H](O)[C@@H](C)[C@@H](O)[C@@H](C)[C@H](OC(C)=O)[C@@H]1C | MIC |  |  | Mycobacterium avium intracellulare |  | 23-Feb | 0.5 µg/mL
CC[C@H]1OC(=O)[C@H](C)[C@@H](O[C@H]2C[C@@](C)(OC)[C@@H](OC(C)=O)[C@H](C)O2)[C@H](C)[C@@H](O[C@@H]2O[C@H](C)C[C@H](N(C)C)[C@H]2O)C(C)(O)C[C@@H](C)/C(=N\OCCOc2ccccc2)[C@H](C)[C@@H](O)[C@]1(C)O | MIC |  |  | Mycobacterium avium complex |  | 20092 (clarithromycin-resistant) | 6.25 µg/mL
CCCCCc1ccc(NC(=O)NNC(=O)c2ccncc2)cc1 | MIC100 | broth dilution |  | Mycobacterium kansasii | 21 d | My 6509/96 | 125 µM
C[C@@H](O)[C@H]1C(=O)N2C(C(=O)O)=C(SCCN=CN)C[C@H]12 | MIC |  |  | Mycobacterium fortuitum |  | 1261 | 3.12 µg/mL
CCCCCCCCCCCCC(=O)O[C@H]1[C@H](C)OC(O[C@H]2[C@H](C)[C@@H](O[C@@H]3O[C@H](C)C[C@H](N(C)C)[C@H]3O)C(C)(O)C[C@@H](C)/C(=N\OCCCOc3ccccc3)[C@H](C)[C@@H](O)[C@](C)(O)[C@@H](CC)OC(=O)[C@@H]2C)C[C@@]1(C)OC | MIC |  |  | Mycobacterium avium complex |  | 20039 (clarithromycin-susceptible) | >50 µg/mL
Cc1nn2ccccc2c1C(=O)NCc1ccc(N2CCN(c3ccc(OC(F)(F)F)cc3)[C@@H](C)C2)c(F)c1.Cl | inhibition | fluorescence | 0.092 µM | Mycobacterium avium |  |  | 85%

4 of the rows above, restated:

structure,endpoint,read by,dose,organism,setting,strain or isolate,result
CCc1nc2cc(C)c(F)cn2c1C(=O)NCc1ccc(N2CCN(c3ccc(OC(F)(F)F)cc3)[C@@H](C)C2)c(F)c1,inhibition,fluorescence,0.068 µM,Mycobacterium avium,,,85%
CC[C@H]1OC(=O)[C@H](C)[C@@H](O[C@H]2C[C@@](C)(OC)[C@@H](OC(C)=O)[C@H](C)O2)[C@H](C)[C@@H](O[C@@H]2O[C@H](C)C[C@H](N(C)C)[C@H]2O)C(C)(O)C[C@@H](C)/C(=N\OCCCCCc2ccccc2)[C@H](C)[C@@H](O)[C@]1(C)O,MIC,,,Mycobacterium avium complex,,20092 (clarithromycin-resistant),3.13 µg/mL
CC[C@H]1OC(=O)[C@H](C)[C@@H](O[C@H]2C[C@@](C)(OC)[C@@H](O)[C@H](C)O2)[C@H](C)[C@@H](O[C@@H]2O[C@H](C)C[C@H](N(C)C)[C@H]2O)[C@](C)(O)C[C@@H](C)/C(=N\OC)[C@H](C)[C@@H](O)[C@]1(C)O,MIC,,,Mycobacterium avium complex,,20039 (clarithromycin-susceptible),3.13 µg/mL
O=C(NCc1ccc(C(F)(F)F)cc1Cl)c1c(Cl)nc2ccccn12,MIC50,fluorescence,,Mycobacterium ulcerans,,,>10 µg/mL

Lines come from different laboratories, so protocols vary. Inhibition is in % at the dose shown (toxicity tests: loss of growth or viability). MIC50, MIC90 and the like: level of inhibition, or share of isolates inhibited. a–b is a range or a potency band.